In patent US20200207824A1:

Target: T-cell receptor on CD8+ T cells isolated from spleens of LCMV mice (antigen-specific, lymphocytic ch (mouse))

In the case of “syntac: 986-835 (from UniProt P60568) (peptide-MHC)”, the Kd is reported as 0.388 nM.
